Each structure is given as a SMILES string.

The series concerns wild type NL4.3 HIV-1. Kind of series: Tissue culture infectivity test, TZM titration of supernatants from infected TZM cells. To be noted: selectivity index calculated as CC50/IC50. The series is classed as cell-based. The method, then: Hits selected in the YFP-screen were further evaluated in the tissue culture experiments with cells infected with the wild type NL4.3 HIV-1. The virus for infection was obtained from co-culture of MT4 cells. The MT4 cells co-culture was synchronized for one week and then used for the infection of fresh MT 4 cells. 48 hrs post-infection was the culture supernatant harvested, cleared by the filtration through […] filter and stored in -80 °C in 1 ml aliquots. Amount of virus was quantified by enzyme-linked immuno sorbent assay (ELISA) with antibodies against HIV-1 CA (3 ng of CA/ml) and blue cell assay (1x10^5 IU/ml), which gives 3 x 10^4 IU/ng of CA.
For compounds testing the TZM cells were seeded on 96-well plate in the density 5 x 10^3 cells per well. The culture media was aspirated approx. 16 hrs later and cells were infected by the wild type NLA.3 HIV-1 by addition of 50J..il of prepared virus stock diluted with 50 µl of complete DMEM. The compounds were added twice to ensure that there are not any preassembled viruses present at the time of their addition. Compounds were first added 8 hrs post-infection and then 24 hrs later. In both cases the old culture media were replaced by 100 µl of fresh complete DMEM prior to the compounds addition. Different compounds concentrations were tested, but the DMSO concentration never exceeded 1 % DMSO. As controls were used cells treated only with 1 % DMSO and cells treated with 0,1 µM Lopinavir (HIV-1 protease inhibitor). Supernatant was harvested 24 hrs after the second compound addition, i.e. 56 hrs post-infection. Harvested supernatants were immediately titrated on the fresh TZM cells in aim to perform the infectivity assay (TZM titration), or inactivated by addition of Triton X-100 to the final concentration 0.025 % for further ELISA analysis.
TZM titration was performed on the cells seeded day before on 96-well plate in the density 5 x 10^3 cells per well. The analysis was performed for each compound concentration at three different dilutions and in duplicates. The culture media was aspired and cells were lysed 48 hrs post-infection by addition of 100 µl of SteadyGlo luciferase substrate (Promega) diluted 1 : 1 by complete DMEM. The luminescence signal was measured on Luminoskan Ascent (Thermo Labsystems) after the transfer of 80 µl of lysate to the flat bottom white polystyrene assay plates (Costar).
For `O=[N+]([O-])c1ccc(F)c(Nc2nc(-c3cccnc3)nc3cc(C(F)(F)F)ccc23)c1` [OSR-178], the SI is reported as 3.3.
On to `Fc1cc(Nc2nc(-c3cccnc3)nc3ccccc23)cc(F)c1F` [OSR-199], for which the SI is listed as 19.6.
Under `NC(=O)c1c(F)cccc1Nc1nc(-c2ccccn2)nc2ccccc12` [OSR-85] stands 19.2; under `FC(F)(F)c1cccc(Nc2nc(-c3cccnc3)nc3cc(C(F)(F)F)ccc23)c1` [OSR-201], 2.9; under `c1cncc(-c2nc(Nc3ccc4[nH]nnc4c3)c3ccccc3n2)c1` [AMR.325], 29.
Consider `CNc1ccc([N+](=O)[O-])cc1Nc1nc(-c2ccc(C(=O)c3ccccc3)cc2)nc2ccccc12` [OSR-77], for which the SI is reported as 3.5.
Under `CNc1ccc([N+](=O)[O-])cc1Nc1nc(-c2cccnc2)nc2ccccc12` [AMR.494] stands 8.9.

The record behind these values is EP2769723A1, “Compounds for use in inhibiting HIV capsid assembly” (priority 2013, dated 2014).
